Results reported in publication PMC5017893.

Molecular target: recombinant MUC16 (aa21005-21992; R&D Systems)
Assay: SPR

fold greater affinity than the F(ab)2 of VRC01: 8 fold
Substance: Fc fragment of VRC01 (domain or fragment)
